{"source": "patent US20110159480A1", "about": "“CELL-BASED SCREENING ASSAY TO IDENTIFY MOLECULES THAT STIMULATE IFN-ALPHA/BETA TARGET GENES” (INSTITUT PASTEUR, priority 2009, published 2011)", "molecules": {"B1": {"name": "IFN-β: recombinant interferon β used as positive control at 1,000 IU/ml (protein, UniProt P01574 22-187, looked up)", "Interferon beta": "MSYNLLGFLQRSSNFQCQKLLWQLNGRLEYCLKDRMNFDIPEEIKQLQQFQKEDAALTIYEMLQNIFAIFRQDSSSTGWNETIVENLLANVYHQINHLKTVLEEKLEKEDFTRGKLMSSLHLKRYYGRILHYLKAKEYSHCAWTIVRVEILRNFYFINRLTGYLRN"}}, "system": "luciferase reporter gene under control of an ISRE element", "experiment": "ISRE-luciferase reporter in HEK-293T cells treated with recombinant IFN-β, with or without co-expressed measles virus V protein", "type": "cell-based, human", "settings": "1,000 IU/ml recombinant IFN-β added 24 h after transfection, 24 h incubation"}
{"molecule": "B1", "values": [{"measurement": "relative luciferase activity of IFN-treated cells", "value": "stimulated"}]}
